PubChem BioAssay AID1259414, Drosophila RNAi Screening Center | 2018
Purpose: 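Host factors increasing or decreasing Wolbachia levels in cultured fly cells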 (primary screen). System: Drosophila JW18 cells infected with Wolbachia. Knock-down reagent: long dsRNA against Drosophila genes, 0.25 µg dsRNA per well of a 384-well plate. Duration: 5 days. Conditions: cells persistently infected with Wolbachia before knock-down; no added drug. Detection: 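Automated imaging of bacterial rRNA staining divided by host cell count, reported as plate-normalised robust z-score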. Scale: Wolbachia per cell robust z: higher = more Wolbachia per host cell than the plate typical. Call rule: 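Active if absolute robust z reaches 1.5 in two or more of three replicates, leaving out multi- or no-target dsRNAs, genes unexpressed in JW18 and A1 wells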.
In all, the deposit lists about 24,000 reagents; below is a random part of those that have a named target and a result. Of all reagents, about 1,210 (5%) got an active call. 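Inactive calls also include excluded dsRNAs with several or no targets, genes unexpressed in JW18, and well A1, regardless of score.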 Unmarked entries are inactive. Reagents against one gene are numbered here. Names joined by + are all predicted targets of the reagent.

The opening 8 records, ahead of the listing:
target gene | dsRNA no. | Wolbachia per cell robust z, rep 1 | Wolbachia per cell robust z, rep 2 | Wolbachia per cell robust z, rep 3
CG8888 | 1 | -2.01 | -7.69 | -2.04
CG8888 | 2 | -0.181 | 0.543 | -0.206
Gbp2 | 1 | -0.981 | -5.56 | -1.34
CG12420 + CG12817 | 1 | 0.79 | -0.0366 | -0.795
CG31826 | 1 | 0.842 | 0.558 | -4
CG3581 | 1 | 0.729 | -2.17 | -0.129
CG9522 | 1 | 0.396 | -0.667 | -0.0657
CG9522 | 2 | -1.69 | 0.604 | 0.266

Main list, from the first entry:
target gene | dsRNA no. | Wolbachia per cell robust z, rep 1 | Wolbachia per cell robust z, rep 2 | Wolbachia per cell robust z, rep 3
CG8888 | 1 | -2.01 | -7.69 | -2.04
CG8888 | 2 | -0.181 | 0.543 | -0.206
Gbp2 | 1 | -0.981 | -5.56 | -1.34
CG12420 + CG12817 | 1 | 0.79 | -0.0366 | -0.795
CG31826 | 1 | 0.842 | 0.558 | -4
CG3581 | 1 | 0.729 | -2.17 | -0.129
CG9522 | 1 | 0.396 | -0.667 | -0.0657
CG9522 | 2 | -1.69 | 0.604 | 0.266
CG7519 | 1 | -0.00933 | -0.0162 | -1.38
Rnmt | 1 | 0.137 | 0.0509 | -0.953
CG8765 | 1 | -1.15 (active) | -2.87 | -3.36
CG8765 | 2 | -5.97 | -5.66 | -4.12
CG8850 | 1 | -0.214 | -2.29 | -1.08
CG8850 | 2 | 0.311 | -1.02 | 0.738
U3-55K | 1 | 0.511 | 0.63 | 1.14
U3-55K | 2 | 0.104 | 0.187 | 1.84
CG5386 | 1 | -0.16 | -0.227 | -0.143
CG9372 | 1 | -2.25 | -1.1 | -0.108
CG34129 | 1 | -2.78 | 0.536 | 0.3
alphaSnap | 1 | 0.934 | 1.6 | 0.727
alphaSnap | 2 | 5.19 | 4.05 | 8.89
CG33061 | 1 | -0.417 | -0.732 | -0.25
CG33061 | 2 | -1.04 | -2.62 | -3.68
TfIIFalpha | 1 | 0.628 | -0.354 | -0.218
TfIIFalpha | 2 | 0.257 | -0.22 | -0.379
TfIIFalpha | 3 | 0.0651 | 0.164 | -1.39
apt | 1 | 0.877 | 0.455 | -7.02
apt | 2 | -0.513 | -0.52 | 0.31
ATPsynB | 1 | 0.833 | -0.653 | -0.864
yps | 1 | 0.0403 | -0.62 | -1.12
adp | 1 | -0.194 | 0.128 | -0.649
Alh | 1 | -1.38 | -4.54 | -0.167
Alh | 2 | -2.78 (active) | -0.283 | -1.6
Alh | 3 | -6.92 | -0.594 | -1.28
Alh | 4 | 0.688 | 0.581 | 0.82
Alh | 5 | 0.439 | 0.346 | -0.135
CG14212 | 1 | 0.501 | 0.32 | 0.703
CG14212 | 2 | 0.71 | -0.596 | -1.53
CG14212 | 3 | -0.672 | -0.614 | 0.371
comm | 1 | 0.109 | 0.414 | 0.711
comm | 2 | 0.191 (active) | 2.53 | 1.94
CG30265 + CG12490 | 1 | 0.489 | 0.556 | -0.0873
toe | 1 | 0.214 | -0.847 | -0.369
toe | 2 | -0.663 | -2.71 | 0.485
toe | 3 | -0.153 | -0.657 | 0.37
CG32856 | 1 | 0.416 | 0.000127 | 0.66
CG32856 | 2 | -0.184 | -0.708 | -0.872
CG11069 | 1 | -1.57 | -0.129 | -0.344
ash1 | 1 | 0.717 (active) | 3.4 | 3.44
RhoGEF2 | 1 | -0.374 | -3.5 | 0.541
RhoGEF2 | 2 | 0.804 | 0.566 | 0.172
CG32573 + CG42512 | 1 | 0.315 | -1.53 | 0.435
CG15514 | 1 | 1.1 | 0.651 | 0.308
CG15514 | 2 | 1.04 | 1.03 | 0.736
GABA-B-R1 | 1 | -0.305 | 0.374 | -1.38
CG12861 | 1 | 0.559 | 0.275 | 0.439
CG12861 | 2 | -1.6 | -2.28 | -0.432
CG12861 | 3 | 0.433 | -0.893 | 0.385
Pdi | 1 | -0.897 (active) | -2.03 | -1.64
Pdi | 2 | 0.567 | -2.49 | -0.611
CG33217 | 1 | 0.787 | 1.16 | 1.2
CG33217 | 2 | -0.465 | 0.443 | -0.506
CG31051 | 1 | 0.457 | -1.04 | -0.974
Pbp45 | 1 | 0.225 | 0.614 | -1.06
Mst36Fb | 1 | -1.09 | 0.678 | -1.17
Mst36Fb | 2 | -2.33 | 0.921 | 1.79
Cyp12d1-d | 1 | 1.29 | -0.178 | -0.582
Spn100A | 1 | -0.486 | -0.00785 | -0.217
